Results of unrelated studies side by side (data: NIAID ChemDB).

Common to all: growth or infection tests; species: Plasmodium falciparum

ECn: concentration that inhibits the pathogen or its effect by n%. An empty or dashed field is not shown. Rows are shuffled and stem from different studies.

SMILES	mutations	cell line	setting	method	strain or isolate	endpoint	value
CCN(CC)CCNC(=O)c1sc(-c2ccc(OC)cc2)nc1-c1ccccc1	-	-	-	-	3D7	EC50	>19.3 µg/mL
CCOC(=O)C1=C(O)/C(=C\c2cc(C)n(C3CCN(Cc4cccnc4)CC3)c2C)N=C1C	Chloroquine/pyrimethamine-resistant	-	-	-	K1	EC50	0.46 µM
Fc1ccc(CC[C@@H]2C[C@@H]3CC[C@@H]4C[C@H](CCc5ccc(F)cc5)NC(=N2)N43)cc1	-	-	-	LDH	D6	EC50	5.62 µM
Cc1[nH]nc2c1C(c1cc(Br)cc(C#N)c1)(C1CC=CC1)C(C#N)=C(N)O2	-	-	-	radiometric	NF54	EC50	0.43 µM
NC1=Nc2ccc(Cl)cc2C1(O)C1CC1	-	-	-	-	Dd2	EC50	0.465 µM
Cc1[nH]nc2c1C(c1cc(C#N)cc(N3CCNCC3)c1)(C(C)C)C(C#N)=C(N)O2	-	-	-	radiometric	NF54	EC50	4.15 µM
CCN(CC)CCCC(C)n1c(N)c(-c2nc3ccccc3s2)c2nc(C#N)c(C#N)nc21	-	Erythrocytes	-	hypoxanthine uptake / radiometric	NF54	EC50	0.04 µM
COc1ccc(/C=C/C(=O)c2ccc(Cl)cc2)c(OC)c1OC	-	-	-	SYBR Green / fluorescence	INDO	EC50	16.3 µM
Clc1ccc2c(NCCCCN3CCN(C(c4ccccc4)c4ccccc4)CC3)ccnc2c1	-	-	-	SYBR Green / fluorescence	Dd2	EC50	0.0013 µM
NC1=Nc2ccc(Cl)cc2C1(O)C#Cc1ccccc1	-	-	-	-	Dd2	EC50	1.127 µM
Cc1[nH]nc2c1C(c1cc(C#N)cc(-c3ccc(C(=O)O)s3)c1)(C(C)C)C(C#N)=C(N)O2	-	-	-	radiometric	NF54	EC50	0.7 µM
CC(C)n1c2c(c3ccccc31)C(=O)c1ccc3ccccc3c1C2=O	-	-	-	broth dilution	FRC-3	EC50	0.64 µM
Cn1nc(C(F)(F)F)c(-c2ccc(Br)cc2)c1NC(=O)Nc1ccc(F)cc1F	KAE678-resistant (A184S/P990R)	-	-	SYBR Green / fluorescence	KAE678R-2	EC50	0.568 µM
COc1ccc(Nc2nc(NCCCNc3ccnc4cc(Cl)ccc34)nc(N3CCOCC3)n2)cc1	-	-	-	-	W2	EC50	0.15 µM
CCCCN1C(=O)c2ccccc2NC1c1ccc(OC)c(COc2ccc(F)cc2)c1	-	-	-	luciferase	3D7	EC50	>20 µM
Cc1cccc(CCC2CC3CCC4CC(C)NC(=N2)N34)c1	-	-	-	LDH	D6	EC50	9.39 µM
NC(=S)N/N=C/c1ccc2ccccc2c1	-	-	-	LDH	NF54	EC50	17.4 µM
COc1cc2c(cc1OC)[C@H]1O[C@](CCCCN3C(=O)c4ccccc4C3=O)(C2)OC2=C1C(=O)CC(C)(C)C2	-	-	-	SYBR Green / fluorescence	HB3 Dd2	EC50	3.8 µM
Cc1ccc(C(C)C)cc1.NC(=S)N/N=C/c1ccc2ccccc2c1.[Cl][Ru+]	-	-	-	LDH	NF54	EC50	3.2 µM
NC1=Nc2ccc(Cl)cc2[C@]1(O)c1ccccc1	-	-	-	-	Dd2	EC50	0.675 µM
CN[C@@H](CC1=CN=c2c(O)c3c(c(O)c21)=NC=CS3(=O)=O)C(=O)O	-	-	-	-	Dd2	MIC	0.159 µM
C#CCCC1CC2CCC3CC(C)NC(=N1)N23	-	-	-	LDH	D6	EC50	20.6 µM
Cc1[nH]nc2c1C(c1cc(C#N)cc(-c3ccc(C(=O)NCCCN4CCN(C)CC4)s3)c1)(C(C)C)C(C#N)=C(N)O2	-	-	-	radiometric	NF54	EC50	0.94 µM
C[C@H]1Cc2c([nH]c3cc(Cl)c(F)cc23)[C@@]2(N1)C(=O)Nc1ccc(Cl)cc12	KAE678-resistant (I203M/I263V)	-	-	SYBR Green / fluorescence	KAE678R-3	EC50	0.011 µM
O=C(/C=C/C=C/c1ccc2c(c1)OCO2)c1ccc(Cl)c(Cl)c1	-	-	-	SYBR Green / fluorescence	Dd2	EC50	100 µM
OCCNc1nc(NCCNc2ccnc3cc(Cl)ccc23)nc(N2CCOCC2)n1	-	-	-	-	D6	EC50	0.49 µM
N=C(N)c1ccc(NCCCCCCNc2ccc(C(=N)N)cc2N)c(N)c1	-	-	-	hypoxanthine uptake	D6	EC50	0.079 µM
Cc1[nH]nc2c1C(c1cc(Cl)cc(N3CCOCC3)c1)(C1CCC1)C(C#N)=C(N)O2	-	-	-	radiometric	NF54	EC50	0.6 µM
CCN(CC)CCN1C(=O)c2ccccc2NC1c1ccc(OC)c(COc2cc(C(C)C)c(Cl)cc2C)c1	-	-	-	luciferase	3D7	EC50	2.55 µM
CC1CC2CCCC3CC(CCc4cccc(Cl)c4)N=C(N1)N32	-	-	-	LDH	W2	EC50	3.02 µM
OCCCNc1nc(NCCCCNc2ccnc3cc(Cl)ccc23)nc(N2CCCCC2)n1	-	-	-	-	D6	EC50	0.06 µM
CCCCCC[C@]12Cc3cc(OC)c(OC)cc3[C@@H](O1)c1c(c3ccccc3n(C)c1=O)O2	-	-	-	SYBR Green / fluorescence	7G8 GB4	EC50	1 µM
CCCCCC	-	Human dermal fibroblasts	-	MTT	D10	EC50	43.4 µg/mL
O=C(NCCN1CCOCC1)c1sc(-c2ccccc2)nc1-c1ccccc1	-	-	-	-	K1	EC50	>10 µg/mL
COC(=O)c1cccc(C2(O)C(N)=Nc3ccc(Cl)cc32)c1	-	-	-	-	3D7	EC50	0.783 µM
CCC[C@H]1O[C@@H]2CC(=O)O[C@@H]2C2=C1C(=O)c1c(O)cccc1C2=O	-	-	-	SYBR Green	Dd2	EC50	0.8 µM
Cc1[nH]nc2c1C(c1cc(Cl)cc(-c3cccnc3)c1)(C1CCC1)C(C#N)=C(N)O2	-	-	-	radiometric	NF54	EC50	0.7 µM
C[C@H]1CCc2c([nH]c3ccccc23)[C@@]2(N1)C(=O)Nc1ccc(Cl)cc12	KAE678-resistant (A184S/P990R)	-	-	SYBR Green / fluorescence	KAE678R-2	EC50	0.227 µM
OCCNc1nc(NCCCNc2ccnc3cc(Cl)ccc23)nc(N2CCOCC2)n1	-	-	-	-	D6	EC50	0.5 µM
O=C(NCCN1CCCC1)c1sc(-c2ccccc2)nc1-c1ccccc1	-	-	-	-	3D7	EC50	>19.3 µg/mL
Cc1c(O)c2ccccc2c2c1sc(NC1CCCCC1)[n+]2CCCN1CCN(C)CC1	-	-	-	hypoxanthine uptake	D10	EC50	0.16 µM
CCCCC1CC2CCCC3CC(C)NC(=N1)N23	-	-	-	LDH	W2	EC50	5.62 µM
CCc1[nH]nc2c1C(c1cc(Cl)cc(Cl)c1)(C1CCC1)C(C#N)=C(N)O2	-	-	-	radiometric	NF54	EC50	>2.57 µM
COc1ccc(C(=O)/C=C/c2cccc3ccccc23)cc1	-	-	-	SYBR Green / fluorescence	3D7	EC50	16.5 µM
NC(=S)N/N=C/c1ccc(Cl)cc1.[Cl][Ru+].c1ccccc1	-	-	-	LDH	NF54	EC50	6.2 µM
COC(=O)CCS(=O)(=O)N(C)c1cc(C#N)cc(C2(C(C)C)C(C#N)=C(N)Oc3n[nH]c(C)c32)c1	-	-	-	radiometric	NF54	EC50	0.45 µM
COc1ccc(/C=C/C(=O)c2ccc(N3CCN(C)CC3)cc2)cc1OC	-	-	-	-	-	EC50	4.96 µg/mL
N#Cc1nc2c(-c3nc4ccccc4[nH]3)c(N)n(CC(O)c3ccccc3)c2nc1C#N	-	Erythrocytes	-	hypoxanthine uptake / radiometric	NF54	EC50	0.44 µM
COc1cc(/C=C/C(=O)c2ccc(-n3cnc4ccccc43)cc2)cc(OC)c1OC	-	-	-	-	-	EC50	7.6 µg/mL
COc1cc(OC)c(OC)cc1/C=C/C=C/C(=O)c1ccc(Cl)c(Cl)c1	-	-	-	SYBR Green / fluorescence	3D7	EC50	50 µM
CC[C@H]1OC(=O)[C@H](C)[C@@H](OC2C[C@@](C)(OC)[C@@H](O)[C@H](C)O2)[C@H](C)[C@@H](OC2O[C@H](C)C[C@H](N(C)C)[C@H]2O)[C@](C)(O)C[C@@H](C)CN(C)[C@H](C)[C@@H](O)[C@]1(C)O	-	RBC	48 h	fluorescence	W2 Mef	EC50	18.9 µM
COC(=O)C1=C(C(=O)OC)C2N(Cc3ccccc3)c3ccccc3[C@@]23C[C@@H](C(=O)OC)N(S(=O)(=O)c2ccc(C(F)(F)F)cc2)C3=N1	-	-	-	SYBR Green / fluorescence	7G8 GB4	EC50	1.7 µM
N#Cc1nc2c(-c3nc4ccccc4[nH]3)c(N)n(Cc3cccc(C(F)(F)F)c3)c2nc1C#N	-	Erythrocytes	-	hypoxanthine uptake / radiometric	NF54	EC50	0.18 µM
Cc1c(O)c2ccccc2c2c1sc(NCCCN(C)C)[n+]2C	-	-	-	hypoxanthine uptake	D10	EC50	0.21 µM
COc1ccc(/C=C/C(=O)c2ccc(N3CCCCC3)cc2)cc1	-	-	-	-	-	EC50	6.92 µg/mL
COc1ccc([C@]23Cc4cc(C#N)ccc4[C@@H](O2)c2c(cc(-c4ccccc4)oc2=O)O3)cc1	-	-	-	SYBR Green / fluorescence	HB3 Dd2	EC50	2.9 µM
C#CCC[C@@H]1C[C@@H]2CC[C@@H]3C[C@H](CCC#C)NC(=N1)N32	-	-	-	LDH	W2	EC50	7.71 µM
NC1=Nc2ccc(Cl)cc2C1(O)c1ccccc1	-	-	-	-	Dd2	EC50	0.507 µM
CN(C)CCCn1c(N)c(-c2nc3ccccc3[nH]2)c2nc(C#N)c(C#N)nc21	-	Erythrocytes	-	hypoxanthine uptake / radiometric	NF54	EC50	0.1 µM
NC1=Nc2ccc([N+](=O)[O-])cc2C1(O)c1ccccc1	-	-	-	-	Dd2	EC50	>5 µM
CCN(CC)CCN1C(=O)c2ccccc2NC1c1ccccc1F	-	-	-	luciferase	3D7	EC50	>20 µM
O=C(/C=C/C=C/c1ccc2c(c1)OCO2)c1ccc(F)cc1	-	-	-	SYBR Green / fluorescence	INDO	EC50	29 µM
COc1ccc(/C=C/C(=O)c2ccc(N3CCOCC3)cc2)cc1OC	-	-	-	-	-	EC50	5.16 µg/mL
CC(C)CCC[C@@H]1C[C@@H]2CC[C@@H]3C[C@H](CCCC(C)C)NC(=N1)N32	-	-	-	LDH	D6	EC50	1.98 µM
Cc1ccc(C(C)C)cc1.NC(=S)N/N=C/c1ccccc1.[Cl][Ru+]	-	-	-	LDH	NF54	EC50	10.7 µM
CCC1OC(O)(C(C)(O)C(=O)N[C@@H]2C(=O)N3NCCC[C@@H]3C(=O)N(O)[C@@H](COC)C(=O)N3NCC(OC4CC(OC)C(OC5CC(OC)C(O)C(C)O5)C(C)O4)=CC3C(=O)N3CC[C@@H](O)[C@H]3C(=O)N(O)[C@@H](CC)C(=O)O[C@H]2C(C)C)CCC1C(=O)C(C)(O)CC	-	-	-	absorbance	3D7	EC50	0.009 µM
CC(C)OC(C)C	-	Human dermal fibroblasts	-	MTT	D10	EC50	8.8 µg/mL
N=C(N)c1ccc(NCCCNc2ccc(C(=N)N)cc2)cc1	-	-	-	hypoxanthine uptake	D6	EC50	0.04 µM
CC[C@H]1OC(=O)[C@H](C)[C@@H](OC2C[C@@](C)(OC)[C@@H](O)[C@H](C)O2)[C@H](C)[C@@H](OC2O[C@H](C)C[C@H](N(C)C)[C@H]2O)[C@](C)(OC2C[C@@H](N(C)C)[C@@H](O)[C@H](C)O2)C[C@@H](C)C(=O)[C@H](C)[C@@H](O)[C@]1(C)O	-	RBC	120 h	fluorescence	W2 Mef AziR	EC50	0.93 µM
N=C(N)c1ccc(OCCCCCOc2ccc(C(=N)N)cc2)cc1	-	-	-	hypoxanthine uptake	W2	EC50	0.129 µM
Cc1ccccc1C1(O)C(N)=Nc2ccccc21	-	-	-	-	3D7	EC50	0.112 µM
CCOC(=O)C1=C(C(=O)OCC)C2N(Cc3ccccc3C(F)(F)F)c3ccccc3[C@@]23C[C@@H](C(=O)OC)N(S(=O)(=O)c2c(C)noc2C)C3=N1	-	-	-	SYBR Green / fluorescence	7G8 GB4	EC50	0.7 µM
Cc1[nH]nc2c1C(c1cc(C#N)cc(C(F)(F)F)c1)(C1CC=CC1)C(C#N)=C(N)O2	-	-	-	radiometric	NF54	EC50	0.18 µM
C#CCC[C@@H]1C[C@@H]2CCC[C@@H]3C[C@H](CCC#C)NC(=N1)N32	-	-	-	LDH	D6	EC50	14.13 µM
N=C(N)c1ccc(OCCCCOc2ccc(C(=N)N)cc2[N+](=O)[O-])c([N+](=O)[O-])c1	-	-	-	hypoxanthine uptake	W2	EC50	0.112 µM
CC1(C)C2CC=C3C(CC[C@@]4(C)C5C[C@](C)(C(=O)O)CC[C@]5(C)CC[C@]34C)[C@@]2(C)CC[C@H]1O	CQ-resistant	-	-	SYBR Green	FCM29	EC50	16.4 µM
CCCCN1C(=O)c2ccccc2NC1c1ccc(F)cc1	-	-	-	luciferase	3D7	EC50	>20 µM
CCN1C(=NCc2cccc(Cl)c2)N[C@H](c2cccc(C(F)(F)F)c2)C(C(=O)OC)=C1C	-	-	-	SYBR Green / fluorescence	7G8	EC50	9.5 µM
NC1=Nc2cccc(Br)c2C1(O)Cc1ccccc1	-	-	-	-	3D7	EC50	>5 µM
COc1cc2nc(N3CCCN(C)CC3)nc(NC3CCN(Cc4ccccc4)CC3)c2cc1OC	-	-	-	fluorescence	3D7	EC50	0.075 µM

A second listing of 7 rows from above:

SMILES,mutations,cell line,setting,method,strain or isolate,endpoint,value
Cc1[nH]nc2c1C(c1cc(Br)cc(C#N)c1)(C1CC=CC1)C(C#N)=C(N)O2,-,-,-,radiometric,NF54,EC50,0.43 µM
Clc1ccc2c(NCCCCN3CCN(C(c4ccccc4)c4ccccc4)CC3)ccnc2c1,-,-,-,SYBR Green / fluorescence,Dd2,EC50,0.0013 µM
Fc1ccc(CC[C@@H]2C[C@@H]3CC[C@@H]4C[C@H](CCc5ccc(F)cc5)NC(=N2)N43)cc1,-,-,-,LDH,D6,EC50,5.62 µM
Cc1[nH]nc2c1C(c1cc(C#N)cc(-c3ccc(C(=O)O)s3)c1)(C(C)C)C(C#N)=C(N)O2,-,-,-,radiometric,NF54,EC50,0.7 µM
CN(C)CCCn1c(N)c(-c2nc3ccccc3[nH]2)c2nc(C#N)c(C#N)nc21,-,Erythrocytes,-,hypoxanthine uptake / radiometric,NF54,EC50,0.1 µM
NC1=Nc2ccc(Cl)cc2C1(O)C1CC1,-,-,-,-,Dd2,EC50,0.465 µM
CCN(CC)CCNC(=O)c1sc(-c2ccc(OC)cc2)nc1-c1ccccc1,-,-,-,-,3D7,EC50,>19.3 µg/mL